Measurements reported in PubChem BioAssay AID504761 (Drosophila RNAi Screening Center, 2011).

Screen: 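Insect host genes that dengue virus relies on to spread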 (primary screen)
Cell system: D.Mel-2 cells from Drosophila
Knock-down reagent: long dsRNA against Drosophila genes
Conditions: infection with dengue virus type 2; dose and infection time not stated
Measured: 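Cells stained for dengue envelope protein and imaged; percent of infected cells per well on duplicate plates, ranked by infection, with stained nuclei counted for cell number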
Direction: infection score: higher = more virus-infected cells; cell count: higher = more cells in the well
Call rule: 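Very low infection ranking in both replicate wells (chance probability at most 0.065), then a retest showing infection dropped 1.5-fold or more at p below 0.05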
Meaning of the calls: active = confirmed: knock-down lowers infection; inactive = not picked or not confirmed
In all, the deposit lists about 22,000 reagents; below is a random part of those that have a named target and a result. Over the whole deposit, 116 (0.52%) were called active. 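Calls depend on retest data that are not deposited; infection was ranked per plate without normalising between plates; the unit of the infection score is not given.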 The raw values are shown without normalisation. Reagents against one gene are numbered here. No sequences are given here. Not stated in the record: the amount of reagent, the time to read-out.

Gene | reagent | infection score, replicate 1 | infection score, replicate 2 | cell count, replicate 1 | cell count, replicate 2 | Outcome
Muc12Ea (Mucin 12Ea) | 1 | 1.98 | 6.27 | 5744 | 6544 | inactive
Muc12Ea (Mucin 12Ea) | 2 | 4.11 | 14.9 | 6528 | 5315 | inactive
Acp29AB (Accessory gland protein 29AB) | 1 | 18.6 | 11.4 | 5695 | 2784 | inactive
Osi15 (Osiris 15) | 1 | 3.85 | 15.8 | 6913 | 6606 | inactive
Synj (Synaptojanin) | 1 | 18.7 | 35.2 | 6167 | 5411 | inactive
CG15753 (retired record) | 1 | 5.78 | 17.8 | 5142 | 4885 | inactive
Mms19 | 1 | 2.59 | 13.4 | 6652 | 6301 | inactive
Mms19 | 2 | 8.31 | 25.4 | 6934 | 6513 | inactive
subdued | 1 | 9.31 | 2.46 | 6854 | 6738 | inactive
mth (methuselah) | 1 | 15.1 | 12.6 | 6849 | 6750 | inactive
Lrrk (Leucine-rich repeat kinase) | 1 | 3.92 | 19.1 | 5937 | 6105 | inactive
Lrrk (Leucine-rich repeat kinase) | 2 | 6.51 | 0.52 | 6177 | 6988 | inactive
Lrrk (Leucine-rich repeat kinase) | 3 | 1.67 | 4 | 6273 | 6177 | inactive

3 consecutive reagents already listed, quoted:
Gene | reagent | infection score, replicate 1 | infection score, replicate 2 | cell count, replicate 1 | cell count, replicate 2 | Outcome
subdued | 1 | 9.31 | 2.46 | 6854 | 6738 | inactive
mth (methuselah) | 1 | 15.1 | 12.6 | 6849 | 6750 | inactive
Lrrk (Leucine-rich repeat kinase) | 1 | 3.92 | 19.1 | 5937 | 6105 | inactive

The results go on.
Gene | reagent | infection score, replicate 1 | infection score, replicate 2 | cell count, replicate 1 | cell count, replicate 2 | Outcome
CG8726 | 1 | 22.6 | 25.9 | 5458 | 5632 | inactive
CG8726 | 2 | 6.56 | 3.63 | 5728 | 5542 | inactive
Rbpn-5 (Rabaptin-5) | 1 | 10.1 | 23.8 | 6089 | 5123 | inactive
Rbpn-5 (Rabaptin-5) | 2 | 3.82 | 1.09 | 5860 | 6119 | inactive
kcc (kazachoc) | 1 | 53.9 | 42.7 | 5119 | 4300 | inactive
kcc (kazachoc) | 2 | 23 | 15.4 | 6542 | 6311 | inactive
bumpel | 1 | 4.36 | 5.08 | 6809 | 6532 | inactive
CG7573 | 1 | 0.47 | 3.88 | 6231 | 5928 | inactive
CG13917 | 1 | 1.92 | 4.92 | 6352 | 6971 | inactive
CG13917 | 2 | 7.48 | 6.81 | 6444 | 6535 | inactive
